Pooled drug test results. Numbers come from NIAID ChemDB, via PubChem.

Common to all: growth or infection tests; organism: Mycobacterium tuberculosis

ECn: concentration that inhibits the pathogen or its effect by n%. An empty or dashed field is not shown. Percent inhibition refers to the dose given; in toxicity tests it is the harm to the cells. MIC bound: limit read from a one-dose screen. Conditions beyond the fields shown may differ between rows.

smiles	cell line	measure	strain or isolate	tested at	read by	value
Cn1c(NNc2nc(Nc3ccc(Cl)cc3Cl)nc(Nc3ccc(Cl)cc3Cl)n2)nc(-c2ccccc2)c(C#N)c1=O		MIC	H37Rv			>12.5 µg/mL
CCCCNC(=S)N=Nc1c(O)n(CN2CCOCC2)c2ccc(OC(F)(F)F)cc12		EC90	H37Rv		broth dilution / resazurin	>100 µg/mL
Cn1c(NNc2nc(Nc3cccc([N+](=O)[O-])c3)nc(Nc3cccc([N+](=O)[O-])c3)n2)nc(-c2ccc(Cl)cc2)c(C#N)c1=O	VERO	inhibition	H37Rv	12.5 µg/mL		98%
COc1ccc(/C=N/NC(=O)c2nc(C3C4CC5CC(C4)CC3C5)[nH]c2C2C3CC4CC(C3)CC2C4)cc1		MIC	H37Rv			>6.25 µg/mL
CCCOc1ccccc1NC(=O)OCC[NH+]1CCCC1		MIC	My 331/88			1000 µM
O=C(Nc1cc2c(oc1=O)CCC2)c1cnccn1		MIC bound	H37Rv		BACTEC	>6.25 µg/mL
Cn1c(O)c(N=NC(=S)Nc2ccc(Br)cc2)c2cc(OC(F)(F)F)ccc21		EC50	H37Rv		broth dilution / resazurin	0.612 µg/mL
O=c1[nH]c2cc([N+](=O)[O-])ccc2c(O)c1N=Nc1ccc(Cl)c(F)c1		inhibition	H37Rv	6.25 µg/mL	resazurin	70%
COc1ccccc1Nc1nc(NNc2nc(-c3ccccc3)c(C#N)c(=O)n2C)nc(Nc2ccccc2OC)n1		MIC	H37Rv			>12.5 µg/mL
CN=C(N=Nc1c(O)[nH]c2ccccc12)SCC(=O)c1ccccc1		inhibition	H37Rv	12 µg/mL		92%
COc1ccc2c(c1)-c1c3c(cc4ccnc(c14)C2=O)OCO3		MIC	H37Rv		BACTEC	1.56 µg/mL
CSc1ccc(C2C(C(=O)Nc3cccc([N+](=O)[O-])c3)=C(C)NC(C)=C2C(=O)Nc2cccc([N+](=O)[O-])c2)cc1		EC50	H37Rv			<2.5 µg/mL
O=C1c2cc(F)cc(F)c2-n2c1nc1ccccc1c2=O		MIC	MDR 10038			1 µg/mL
COc1ccc(NC(=S)N=Nc2c(O)n(CN3CCOCC3)c3ccc(OC(F)(F)F)cc23)cc1		EC90	H37Rv		broth dilution / resazurin	>100 µg/mL
COC(=O)/C=C/c1cnc[nH]1		inhibition	H37Rv	6.25 µg/mL		0%
C=CC(C)(O)CCC1C(=C)CCC2C(C)(C)CCCC12C		inhibition	H37Rv	6.25 µg/mL		5%
CCCCCCCCNCc1ccncc1		MIC	Sensitive strains			25 µg/mL
O=[N+]([O-])c1ccc(C2=Nn3cnnc3SC2)o1		MIC bound	H37Rv		BACTEC	>12.5 µg/mL
Cc1cccc(N=Nc2c(O)c3ccccc3[nH]c2=O)c1		MIC	H37Rv		resazurin	>6.25 µg/mL
CCCCCCc1cc(C(=O)N/N=C/c2ccc(Cl)cc2)c2ccccc2n1		MIC	H37Rv		BACTEC	≥12.5 µg/mL
CC(C)c1nc(C(=O)O)c(C(C)C)[nH]1		inhibition	H37Rv	6.25 µg/mL		0%
COc1ccccc1NC(=O)C1=C(C)NC(C)=C(C(=O)Nc2ccccc2OC)C1c1ccc(N(C)C)cc1		EC50	H37Rv			<2.5 µg/mL
CCCCCCCCCCCCCCCCNc1ccc(CNCCNC[C@@H](C)O)cc1		MIC				50 µM
O=[N+]([O-])c1cnc(/C=[N+](\[O-])CCO)n1CCO		MIC bound	H37Rv		resazurin	>6.25 µg/mL
CC1=C(C(=O)Nc2ccc([N+](=O)[O-])cc2)C(c2ccc(Cl)cc2)C(C(=O)Nc2ccc([N+](=O)[O-])cc2)=C(C)N1		EC50	H37Rv			<2.5 µg/mL
O=C(O)c1cnccn1		MIC	W7804			480 µg/mL
CCCCCCCCOc1ccc(NC(=O)OCC[NH+]2CCCC2)cc1		MIC	My 331/88			32 µM
CCCCOc1ccc(NC(=S)Nc2ccc(OCCN(CC)CC)cc2)cc1		MIC	H37RV #225			125 µg/mL
O=C(N/N=C/c1ccccc1)c1cnc(C2C3CC4CC(C3)CC2C4)[nH]1		inhibition	H37Rv	6.25 µg/mL		9%
COc1ccc2c(c1)C(=O)c1nc3ccccc3c(=O)n1-2		MIC	H37Rv			1 µg/mL
CC(Cc1ccc(Cl)cc1)NCCNCCCCc1ccccc1		MIC				50 µM
COC(=O)CNC(=O)c1cnc(C(C)(C)C)[nH]1		inhibition	H37Rv	6.25 µg/mL		12%
Cc1ccccc1N=Nc1c(O)c2ccccc2n(C)c1=O		inhibition	H37Rv	6.25 µg/mL	resazurin	97%
O=C1c2ccccc2-n2c1nc1ccc([N+](=O)[O-])cc1c2=O		MIC	MDR 10038			>10 µg/mL
O=c1[nH]c2ccc(Cl)cc2c(O)c1N=Nc1ccc(F)cc1		MIC	H37Rv		resazurin	<6.25 µg/mL
COc1cccc(Nc2nc(NNc3nc(-c4ccc(Cl)cc4)c(C#N)c(=O)n3C)nc(Nc3cccc(OC)c3)n2)c1		EC50	H37Rv			>12.5 µg/mL
CN(Cc1cnc2nc(N)nc(N)c2n1)c1ccc(C(=O)N[C@@H](CCC(=O)O)C(=O)O)c(Cl)c1Cl		inhibition	H37Rv	12.5 µg/mL	BACTEC	-23%
CCOC(=O)c1nc(C2CCCC2)[nH]c1C1CCCC1		inhibition	H37Rv	6.25 µg/mL		91%
CO[C@H]1/C=C/O[C@@]2(C)Oc3c(C)c(O)c4c(=O)c(c5oc6cc(N7CCN(CC(C)C)CC7)cc(=O)c6nc5c4c3=C2O)NC(=O)/C(C)=C\C=C\[C@H](C)[C@H](O)[C@@H](C)[C@@H](O)[C@@H](C)[C@H](OC(C)=O)[C@@H]1C		MIC	2749 (rifampin-sensitive)			0.025 µg/mL
C=CCN1C(=O)C(C)S/C1=N\N=C1/C(=O)Nc2ccccc21		inhibition	H37Rv	12 µg/mL		5%
CCCCNC(=O)c1ncccc1C(=O)O		inhibition	H37Rv	6.25 µg/mL	resazurin	-8%
Cn1c(NNc2nc(Nc3ccc(F)c(Cl)c3)nc(Nc3ccc(F)c(Cl)c3)n2)nc(-c2ccccc2)c(C#N)c1=O		MIC	H37Rv			12.5 µg/mL
CC1COc2c(N3CCN(C)CC3)c(F)cc3c(=O)c(C(=O)O)cn1c23		MIC	2888-3			1 µg/mL
CO[C@H]1/C=C/O[C@@]2(C)Oc3c(C)c(O)c4c(=O)c(c5oc6cc(N7CCN(C(C)C)CC7)cc(=O)c6nc5c4c3=C2O)NC(=O)/C(C)=C\C=C\[C@H](C)[C@H](O)[C@@H](C)[C@@H](O)[C@@H](C)[C@H](OC(C)=O)[C@@H]1C		MIC	3147 (rifampin-sensitive)			0.006 µg/mL
CCNc1nc(NCC)nc(NNc2nc(-c3ccc(Cl)cc3)c(C#N)c(=O)n2C)n1		EC50	H37Rv			<12.5 µg/mL
CN1CCN(c2c(F)cc3c(c2F)-n2c(nc4ccccc4c2=O)C3=O)CC1		MIC	H37Rv			>5 µg/mL
CCCCCCCCNC(CC(=O)OCC)c1ccc(F)cc1		MIC	Sensitive strains			25 µg/mL
CCOc1ccc(NC(=S)Nc2ccc(OCC(C)C)cc2)cc1		MIC	H37RV #302			2 µg/mL
CCCCCCCCCCC[C@@H](C[C@@H]1OC(=O)[C@H]1CCCCCC)OC(=O)[C@H](CC(C)C)NC=O		MIC	H37Rv		broth dilution / agar	5 µg/mL
CCCCOc1cccc(NC(=O)OCCN2CCCCCC2)c1		MIC	My 331/88			16 µM
CC(NC(=O)/C=C/c1ccco1)C(=O)NC(Cc1ccccc1)C(N)=O		MIC bound	H37Rv		BACTEC	>12.5 µg/mL
O=C(O)c1cnc(C2CCCCC2)[nH]1		inhibition	H37Rv	6.25 µg/mL		0%
O=C1OC(c2ccccc2)=N/C1=C\c1cccn(-c2ccccc2)c1=S		inhibition	H37Rv	12.5 µg/mL	BACTEC	-19%
CCCCCCCCC=CCCCCCCCCNCc1ccc(Cl)cc1		MIC	Sensitive strains			3.12 µg/mL
Cc1ccc(N2C(=O)C(C)S/C2=N/N=C2\C(=O)Nc3ccc(Br)cc32)cc1		inhibition	H37Rv	12 µg/mL		7%
CN1CCCC1CN1c2ccccc2Sc2ccccc21		MIC bound	H37Rv		BACTEC	>12.5 µg/mL
NNC(=O)c1nc(C2CCCC2)[nH]c1C1CCCC1		inhibition	H37Rv	6.25 µg/mL		0%
O=c1[nH]c2c([N+](=O)[O-])cccc2c(O)c1N=Nc1ccccc1		inhibition	H37Rv	6.25 µg/mL	resazurin	99%
Cn1c(NNc2nc(Nc3cccc(Cl)c3)nc(Nc3cccc(Cl)c3)n2)nc(-c2ccc(Cl)cc2)c(C#N)c1=O		inhibition	H37Rv	12.5 µg/mL		0%
O=C(Nc1ccccc1)c1cc(S(=O)(=O)Nc2n[nH]c(=O)n2-c2ccccc2)c(S)cc1Cl		MIC bound	H37Rv		resazurin	>6.25 µg/mL
CCCCCCCOc1ccc(NC(=O)OCCN2CCCCC2)cc1		MIC	My 331/88			16 µM
C=CCNC(=S)N=Nc1c(O)[nH]c2ccc(C)cc12		EC50	H37Rv		broth dilution / resazurin	18.1 µg/mL
CC1CC(O)C(=O)C(O[C@@H]2C[C@@H]3CC[C@@H]4[C@H](CC[C@]5(C)[C@@H](C6=CC(=O)OC6)CC[C@]45O)[C@@]3(C=O)CC2O)O1		MIC	H37Rv		BACTEC	≥12.8 µg/mL
Oc1ccccc1CNCCCNCc1ccccc1O		MIC	Sensitive strains			25 µg/mL
CCCCN=C(N=Nc1c(O)[nH]c2ccccc12)SCC(=O)c1ccc([N+](=O)[O-])cc1		EC50	H37Rv			<12 µg/mL
O=C1OC(c2ccccc2)=N/C1=C/C=C/c1ccco1		inhibition	H37Rv	12.5 µg/mL	BACTEC	14%
CCNc1nc(NCC)nc(NNc2nc(-c3ccccc3)c(C#N)c(=O)n2C)n1		inhibition	H37Rv	12.5 µg/mL		46%
N[C@@H](Cn1ccc(=O)c(O)c1)C(=O)O		MIC bound	H37Rv		BACTEC	>12.8 µg/mL
CCCCOc1ccc(NC(=S)Nc2ccc(N(C)C)cc2)cc1		MIC	H37RV #302			2 µg/mL
Cc1ccc(NC(=S)N=Nc2c(O)n(CN3CCOCC3)c3ccc(OC(F)(F)F)cc23)cc1		EC50	H37Rv		broth dilution / resazurin	1.373 µg/mL
CCCCCCCCNC(CC(=O)OCC)c1cccc([N+](=O)[O-])c1		MIC	Sensitive strains			25 µg/mL
NC(=O)c1cnccn1		MIC	Isolate 98-29			900 µg/mL
CCCOc1ccc(NC(=O)OCCN2CCCC2)cc1		MIC	My 331/88			500 µM
CC(NCCNCc1ccccc1Sc1ccccc1CO)C12CC3CC(CC(C3)C1)C2		MIC				50 µM
CCCCOC(=S)SSC(=S)NCCNC(=S)SSC(=S)OCCCC		MIC bound	H37Rv		resazurin	>6.25 µg/mL
C=CCNC(=S)N=Nc1c(O)n(C)c2ccc(OC(F)(F)F)cc12		EC90	H37Rv		broth dilution / resazurin	>100 µg/mL
CC1=C(C(=O)Nc2ccccc2Cl)C(c2ccccc2Cl)C(C(=O)Nc2ccccc2Cl)=C(C)N1		inhibition	H37Rv	2.5 µg/mL		18%
c1ccc(CCCCNCCNCc2cccc3ccccc23)cc1		MIC				25 µM
CCOC(=O)c1cnc(C2CCCCC2)[nH]1		MIC	H37Rv			>6.25 µg/mL
CCCCCCc1cc2c(O)c(C(c3ccccc3)c3c(O)c4cc(CCCCCC)c(O)cc4oc3=O)c(=O)oc2cc1O		inhibition	H37Rv	12.5 µg/mL	BACTEC	11%
O=c1[nH]c2c([N+](=O)[O-])cccc2c(O)c1N=Nc1ccc(Cl)cc1		MIC	H37Rv		resazurin	<6.25 µg/mL
CCCCNC(CC(=O)OCC)c1cccc(Cl)c1		MIC	Sensitive strains			25 µg/mL
CN1C(C(=O)Nc2nccs2)=C(O)c2ccccc2S1(=O)=O		inhibition	H37Rv	6.25 µg/mL	resazurin	-33%
CCOC(=O)CC(NCc1ccccc1)c1cccc([N+](=O)[O-])c1		MIC	Sensitive strains			12.5 µg/mL
C=CCNC(=S)N=Nc1c(O)n(C)c2ccc(C)cc12		EC90	H37Rv		broth dilution / resazurin	>100 µg/mL
O=C1c2c(Cl)cccc2-n2c1nc1ccccc1c2=O		MIC	MDR 10038			1 µg/mL
C=C(Cl)CN(CC(=C)Cl)NC(C)=O		inhibition	H37Rv	12.5 µg/mL	BACTEC	0%
CCCCCCCCNCc1ccccc1[N+](=O)[O-]		MIC	H37Ra			<25 µg/mL

Again, the opening 12 rows:

smiles,cell line,measure,strain or isolate,tested at,read by,value
Cn1c(NNc2nc(Nc3ccc(Cl)cc3Cl)nc(Nc3ccc(Cl)cc3Cl)n2)nc(-c2ccccc2)c(C#N)c1=O,,MIC,H37Rv,,,>12.5 µg/mL
CCCCNC(=S)N=Nc1c(O)n(CN2CCOCC2)c2ccc(OC(F)(F)F)cc12,,EC90,H37Rv,,broth dilution / resazurin,>100 µg/mL
Cn1c(NNc2nc(Nc3cccc([N+](=O)[O-])c3)nc(Nc3cccc([N+](=O)[O-])c3)n2)nc(-c2ccc(Cl)cc2)c(C#N)c1=O,VERO,inhibition,H37Rv,12.5 µg/mL,,98%
COc1ccc(/C=N/NC(=O)c2nc(C3C4CC5CC(C4)CC3C5)[nH]c2C2C3CC4CC(C3)CC2C4)cc1,,MIC,H37Rv,,,>6.25 µg/mL
CCCOc1ccccc1NC(=O)OCC[NH+]1CCCC1,,MIC,My 331/88,,,1000 µM
O=C(Nc1cc2c(oc1=O)CCC2)c1cnccn1,,MIC bound,H37Rv,,BACTEC,>6.25 µg/mL
Cn1c(O)c(N=NC(=S)Nc2ccc(Br)cc2)c2cc(OC(F)(F)F)ccc21,,EC50,H37Rv,,broth dilution / resazurin,0.612 µg/mL
O=c1[nH]c2cc([N+](=O)[O-])ccc2c(O)c1N=Nc1ccc(Cl)c(F)c1,,inhibition,H37Rv,6.25 µg/mL,resazurin,70%
COc1ccccc1Nc1nc(NNc2nc(-c3ccccc3)c(C#N)c(=O)n2C)nc(Nc2ccccc2OC)n1,,MIC,H37Rv,,,>12.5 µg/mL
CN=C(N=Nc1c(O)[nH]c2ccccc12)SCC(=O)c1ccccc1,,inhibition,H37Rv,12 µg/mL,,92%
COc1ccc2c(c1)-c1c3c(cc4ccnc(c14)C2=O)OCO3,,MIC,H37Rv,,BACTEC,1.56 µg/mL
CSc1ccc(C2C(C(=O)Nc3cccc([N+](=O)[O-])c3)=C(C)NC(C)=C2C(=O)Nc2cccc([N+](=O)[O-])c2)cc1,,EC50,H37Rv,,,<2.5 µg/mL